{"source": "paper PMC9486808", "about": "(ACS Chemical Biology, 2022)", "note": "Strings that start with PEPTIDE1 are HELM notation: dots part the residues, brackets hold end groups and non-standard residues.", "data": [{"experiment": "general procedure: Fmoc solid-phase peptide synthesis; Rapp Polymere tentagel S RAM resin; HOBt/HBTU, DIPEA", "details": "whole synthesis, 215 nm, scale of the general procedure 5 μmol", "units": {"crude HPLC purity": "%", "final HPLC purity": "%"}, "values": [{"substance": "Cyclo(Ac-yIVLAWKGHYLESRWTC)G-NH2", "crude HPLC purity": 29}, {"substance": "Cyclo(Ac-yRVFNISWDGEYRSWWC)G-NH2", "crude HPLC purity": 54}, {"substance": "PEPTIDE1{[CH2CO].Y.W.H.K.N.K.Y.V.L.T.Y.S.C.L.F.A.A.G.[am]}$PEPTIDE1,PEPTIDE1,1:R3-14:R3$$$V2.0", "final HPLC purity": ">95"}, {"substance": "Cyclo(Ac-yTYYVLLQRWPPVWAPC)G-NH2", "crude HPLC purity": 66, "final HPLC purity": ">90"}, {"substance": "PEPTIDE1{[CH2CO].[dY].V.L.F.R.W.D.H.G.T.L.A.T.H.W.V.C.G.[am]}$PEPTIDE1,PEPTIDE1,1:R3-18:R3$$$V2.0", "crude HPLC purity": 61, "final HPLC purity": ">95"}, {"substance": "Cyclo(Ac-YVQIFDRYGIYSGKWSC)G-NH2", "crude HPLC purity": 31}, {"substance": "Cyclo(Ac-yLIWPSFNQNAKIIFPC)G-NH2", "crude HPLC purity": 55}, {"substance": "Cyclo(Ac-yVIAIRPFSQLCWRWVC)G-NH2", "crude HPLC purity": 19}, {"substance": "Cyclo(Ac-yFLC)TKWNYGRWYLFYCG-NH2", "crude HPLC purity": 20}, {"substance": "Cyclo(Ac-yVKIVWFEGTLNTTWFC)G-NH2", "crude HPLC purity": 29}, {"substance": "Cyclo(Ac-YITRFTPWPKLYPVWDC)G-NH2 (cyclized, N-acetyl, extra C-terminal Gly amide)", "final HPLC purity": ">95"}, {"substance": "Cyclo(Ac-yFVNWYWHGEKLFYRYC)G-NH2", "crude HPLC purity": 26}, {"substance": "Cyclo(Ac-YSYFDVNTIFWFSPFC)CG-NH2", "crude HPLC purity": 8}, {"substance": "Cyclo(Ac-ySYFIWANFQTEPYFVC)G-NH2", "crude HPLC purity": 26, "final HPLC purity": ">95"}, {"substance": "PEPTIDE1{[CH2CO].[dY].L.K.I.Y.W.S.K.I.H.G.L.V.S.E.W.C.G.[am]}$PEPTIDE1,PEPTIDE1,1:R3-18:R3$$$V2.0", "crude HPLC purity": 29, "final HPLC purity": ">95"}, {"substance": "Cyclo(Ac-yIRLFWINGNLVSEWNC)G-NH2", "crude HPLC purity": 30, "final HPLC purity": ">95"}, {"substance": "Cyclo(Ac-YYKALWINATFYQSLVC)G-NH2", "crude HPLC purity": 9}, {"substance": "PEPTIDE1{[CH2CO].Y.R.W.V.W.T.S.F.F.S.E.P.Y.F.V.V.C.G.[am]}$PEPTIDE1,PEPTIDE1,1:R3-18:R3$$$V2.0", "final HPLC purity": ">95"}, {"substance": "Cyclo(Ac-YSNNRNWLPHDWQVLYC)G-NH2", "crude HPLC purity": 95}, {"substance": "Cyclo(Ac-YRFLWSSFSSQPSWVHC)G-NH2", "crude HPLC purity": 72}, {"substance": "Cyclo(Ac-YYSWFEATGRFRAIFSC)G-NH2", "crude HPLC purity": 34}, {"substance": "Cyclo(Ac-yAFWIRWTNHYRSGFTC)G-NH2", "crude HPLC purity": 60, "final HPLC purity": ">95"}, {"substance": "Cyclo(Ac-yRQWFYLGKYYC)TWSCCG-NH2", "crude HPLC purity": 28}]}]}
